Measured values from US10889573B2, “Anthelmintic quinoline-3-carboxamide derivatives” (Bayer Animal Health GMBH, priority 2016, dated 2021).

Test system: Cooperia curticei
Assay: In vitro assay 6: Cooperia curticei (COOPCU L3), larval mortality
Conditions: 0.8 ppm, after 5 days

O=C(N[C@H]1CCOc2ccccc21)c1cnc2c(-c3cc(F)cc(F)c3F)c(F)ccc2c1N1CCOCC1 [Example 540]
activity (larval mortality): 80%
